The values that follow come from US20230212210A1 (priority 2020, published 2023).

The test deals with S1 protein (or the S1 subunit) of SARS-CoV-2 (Severe acute respiratory syndrome coronavirus 2, UniProt P0DTC2). It counts as binding. As to conditions: for affinity with the S1 protein (in words): judged from the Kd data in Table 7; for Kd: microscale thermophoresis, RED-NHS labelled S1 protein, read-out: Dissociation constants (Kd) of the binding of the S1 protein to various sugar chains. (In general: Microscale thermophoresis detects binding through changes in fluorescence in a small temperature gradient.)

As for Fucα1-2Galβ1-4Glc [HMO3], the “affinity with the S1 protein (in words)” value was “relatively weak” and the equilibrium dissociation constant (Kd) worked out at 71 µM.
For the substance sodium chondroitin sulfate, the “affinity with the S1 protein (in words)” value was “relatively weak” and the Kd was found to be 19 µM.
For “sodium heparin sulfate [reference compound]”, in that order: “relatively strong” and 1.25 µM.

The term Kd denotes the constant that tells how readily two partners part at equilibrium.
